Results reported in patent US20090099136A1 (PHARMASSET, INC., priority 2007, published 2009).

Columns and labels:
NL43 wild type virus = conditions: read-out: EC50 (P4) (WT), P4 CCR5-luc cells, comparison compounds
P4 CCR5-luc cells = experiment: Toxicity, luciferase assay in P4 CCR5-luc cells; conditions: comparison compounds

Substance | EC50 (NL43 wild type virus) [nM] | Toxicity (Luciferase, 6d) (P4 CCR5-luc cells)
D-dioxolane-thymine 5′-(phenyl ethoxy-phenylalanyl phosphate) | > 100000 | >100
D-dioxolane-thymine 5′-(phenyl ethoxy-alanyl phosphate) | 870 | >100
